Laboratory results reported in PMC10059057, “Antileishmanial and Antiplasmodial Activities of Secondary Metabolites from the Root of Antrocaryon klaineanum Pierre (Anacardiaceae)” (Molecules, 2023).

Columns and labels:
[1] = tested on: L. donovani promastigotes 1S (MHOM/SD/62/1S); assay: Antileishmanial resazurin fluorimetric assay on promastigotes; format: cell-based, Leishmania donovani; conditions: SI = CC50 (Raw cells)/IC50 (L. donovani)
Method: (§1) The cryopreserved chloroquine-sensitive (Pf3D7-(MRA-102)), the multi-resistant (PfDd2) of Plasmodium falciparum, and the promastigote form of Leishmania donovani strains were obtained from BEI Resources (https://www.beiresources.org/ (accessed on 16 February 2019)) and are routinely cultured at the Antimicrobial and Biocontrol Agents Unit, University of Yaoundé I.
Leishmania donovani promastiogtes were cultured in Medium 199 (Sigma, Darmstadt, Germany) supplemented with 10% Heat-Inactivated fetal Bovine Serum (HIFBS) (Sigma, Darmstadt, Germany) and 100 IU/mL penicillin/streptomycin. The culture was maintained in 75 cm^2 cell culture flask at 28 °C and sub-cultured every 72 h.
A stock solution was prepared at 100 mg/mL for each extract and fraction and at 50 mg/mL for isolated compound in 100% DMSO (Sigma–Aldrich, Munich, Germany). […]
The antileishmanial activity of crude extracts, derived fractions, and isolated compounds against cultured L. donovani promastigotes was evaluated using the resazurin fluorimetric assay as described by Siqueira-Neto et al. (2010). […] After an additional incubation for 44 h, plates were then read on a Magelan Infinite M200 fluorescence plate reader (Tecan, Männedorf, Switzerland) at excitation and emission wavelengths of 530 and 590 nm, respectively. […]

[2] = tested on: P. falciparum chloroquine-sensitive (Pf3D7); assay: Antiplasmodial SYBR green I based fluorescence assay, chloroquine-sensitive strain; format: cell-based, Plasmodium falciparum; conditions: SI = CC50 (Raw cells)/IC50 (Pf3D7)
Method: as §1, with “I. […]” for “I.”
Drug sensitivity assay was carried out in 96-well microtitration plates using the SYBR green I based fluorescence assay (Smilkstein et al., 2004). […]
The 96 wells flat-bottom assay plates with sorbitol-synchronized ring stage parasites (haematocrit: 1%, parasitaemia: 2%, 90 μL) were incubated in the presence of 10 µL of pre-diluted extracts, fractions, isolated compounds, and reference drugs [Chloroquine and Artemisinin (Sigma–Aldrich, Munich, Germany)] at different triplicate concentrations (100 µg/mL–0.16 µg/mL for extract/fractions and 50 µg/mL–0.08 µg/mL for compounds). […] Fluorescence was measured using the microplate reader Infinite M200 (Tecan) at an excitation and emission wavelength of 485 and 538 nm, respectively. […]

CCCCCCCC=CCCCCCCCCCCCCCC(O)C(O)C(COC1OC(CO)C(O)C(O)C1O)NC(=O)C(O)CCCCCCCCCCCCCC [Antroklaicerebroside (1), (2S,3S,4R,2′R,18E)N-((-3,4-dihydroxy-β-D-gluco-pyranosyl)oxy)hexacos-18-en-2-yl)-2-hydroxyhexadecanamide] was tested, and the “L. donovani Promastigote SI” value [1] was over 80.78 and the SI_Pf3D7 [2] was “greater than 11”.

For COc1c(O)cc2c(=O)oc3c(OC)c(O)cc4c(=O)oc1c2c34 [3,3′-Dimethylellagic acid (4), 3,3′-dimethylellagic acid], the “L. donovani Promastigote SI” value [1] was over 61.96.
